Measured values from several laboratories, pooled; numbers as filed in NIAID ChemDB.

Shared fields: growth or infection tests; species: HIV-1; read-out: EC50

Neighbouring rows are from separate reports. Two numbers with a dash give a range or band. An empty or dashed field is not shown. ECn: concentration that inhibits the pathogen or its effect by n%.

{"SMILES": "CC(C)C1=C2[C@H]3CC[C@@H]4[C@@]5(C)CC[C@H](OC(=O)[C@H]6C[C@@H](C(=O)O)C6(C)C)C(C)(C)[C@@H]5CC[C@@]4(C)[C@]3(C)CC[C@@]2([C@@H](O)CNC(=O)c2ccc3nc(-c4ccccc4)[nH]c3c2)CC1=O", "strain or isolate": "92HT599", "cell line": "MT-2", "read by": "p24 / ELISA", "value": "<1 µM"}
{"SMILES": "N#CC1=CC2Nc3ccccc3C2N(c2ccc([N+](=O)[O-])cc2)C1=O", "strain or isolate": "52534-2", "cell line": "HeLa", "read by": "GFP / fluorescence", "value": "0.19 µM"}
{"SMILES": "COc1ccc(F)c2c(C(=O)C(=O)N3CCN(C(=O)c4cccc(N)c4)C[C@H]3C)c[nH]c12", "cell line": "HeLa + HELA CD4+/CCR5", "read by": "luciferase", "value": "<10 µM"}
{"SMILES": "CC(C)=CCOc1cc(NC(=S)c2ccsc2C)ccc1Cl", "strain or isolate": "NL4-3 (RT V108I)", "changes": "RT-V108I", "cell line": "CEM + CEM-SS", "read by": "cytopathic effect / XTT", "value": "0.006 µM"}
{"SMILES": "O=C(C(=O)N1CCN(C(=O)c2cccc3ccsc23)CC1)c1c[nH]c2cccc(Cl)c12", "cell line": "HeLa + HELA CD4+/CCR5", "read by": "luciferase", "value": "<10 µM"}
{"SMILES": "CC(C)=CCOc1cc(NC(=S)c2ccoc2C)ccc1Cl", "strain or isolate": "NL4-3", "changes": "RT-Y181C", "cell line": "CEM + CEM-SS", "read by": "p24", "value": "0.08 µM"}
{"SMILES": "CC(C)(C)OC(=O)Nc1ccccc1C(=O)N1CCN(C(=O)C(=O)c2c[nH]c3cccc(F)c23)CC1", "cell line": "HeLa + HELA CD4+/CCR5", "read by": "luciferase", "value": "~10 µM"}
{"SMILES": "CC(C)C1=C2[C@H]3CC[C@@H]4[C@@]5(C)CC[C@H](OC(=O)[C@H]6C[C@@H](C(=O)O)C6(C)C)C(C)(C)[C@@H]5CC[C@@]4(C)[C@]3(C)CC[C@@]2(CCNCCN2CCCCC2)CC1=O", "strain or isolate": "92HT599", "cell line": "MT-2", "read by": "p24 / ELISA", "value": "<1 µM"}
{"SMILES": "Cc1cc(S(N)(=O)=O)ccc1NC(=O)COc1ccc(Cl)cc1C(=O)c1cc(Cl)cc(C#N)c1", "strain or isolate": "HXB2", "changes": "RT-Y181C", "cell line": "HeLa + HELA CD4+", "read by": "β-galactosidase", "value": "<0.01 µM"}
{"SMILES": "O=C(C(=O)N1CCN(C(=O)c2cccc(Br)c2S)CC1)c1c[nH]c2cccc(F)c12", "cell line": "HeLa + HELA CD4+/CCR5", "read by": "luciferase", "value": "<10 µM"}
{"SMILES": "Cc1cc(S(N)(=O)=O)ccc1NC(=O)COc1ccc(Cl)cc1C(=O)c1cc(F)cc(C(F)(F)F)c1", "strain or isolate": "HXB2 (RT-K103N G190A) Recombinant", "changes": "RT-K103N G190A", "cell line": "HeLa + HELA CD4+", "read by": "β-galactosidase", "value": "0.011–0.1 µM"}
{"SMILES": "CC(C)=CCOc1cc(NC(=S)c2ccoc2C)ccc1Cl", "strain or isolate": "UC781-R (RT-Y181C)", "changes": "RT-Y181C", "cell line": "CEM + CEM-SS", "read by": "cytopathic effect / XTT", "value": "1 µM"}
{"SMILES": "CC(C)C1=C2[C@H]3CC[C@@H]4[C@@]5(C)CC[C@H](OC(=O)[C@H]6C[C@@H](C(=O)O)C6(C)C)C(C)(C)[C@@H]5CC[C@@]4(C)[C@]3(C)CC[C@@]2(CCNCCc2ccc(Cl)cc2)CC1=O", "strain or isolate": "92HT599", "cell line": "MT-2", "read by": "p24 / ELISA", "value": "<1 µM"}
{"SMILES": "Cc1cc(C)cc(C(=O)c2cc(Cl)ccc2OCC(=O)Nc2ccc(S(N)(=O)=O)cc2C)c1", "strain or isolate": "HXB2", "changes": "RT-L100I", "cell line": "HeLa + HELA CD4+", "read by": "β-galactosidase", "value": "<0.01 µM"}
{"SMILES": "Cc1ccc(C)n1-c1ccc(C(=O)O)c(O)c1", "strain or isolate": "BCF02 R5 GROUP O", "cell line": "PBMC/5.25M7", "read by": "luciferase / cell fusion", "value": "3.94 µM"}
{"SMILES": "Cc1cc(C#N)cc(C(=O)c2cc(Cl)ccc2OCC(=O)Nc2ccc(S(N)(=O)=O)nc2C)c1", "strain or isolate": "HXB2 (RT-K103N Y181C) Recombinant", "changes": "RT-K103N Y181C", "cell line": "HeLa + HELA CD4+", "read by": "β-galactosidase", "value": "<0.01 µM"}
{"SMILES": "CC(C)C1=C2[C@H]3CC[C@@H]4[C@@]5(C)CC[C@H](OC(=O)[C@H]6C[C@@H](C(=O)O)C6(C)C)C(C)(C)[C@@H]5CC[C@@]4(C)[C@]3(C)CC[C@@]2([C@@H](O)CNC(=O)c2ccc(Cl)cc2OCCN(C)C)CC1=O", "strain or isolate": "92HT599", "cell line": "MT-2", "read by": "p24 / ELISA", "value": "<1 µM"}
{"SMILES": "O=C(C(=O)N1CCN(C(=O)c2cccc(S)c2)CC1)c1c[nH]c2cccc(F)c12", "cell line": "HeLa + HELA CD4+/CCR5", "read by": "luciferase", "value": "<10 µM"}
{"SMILES": "CN1c2ccccc2C2C1C=C(C#N)C(=O)N2c1ccc([N+](=O)[O-])cc1", "strain or isolate": "4755-5", "cell line": "HeLa", "read by": "GFP / fluorescence", "value": "0.02 µM"}
{"SMILES": "COc1ccc(F)c2c(C(=O)C(=O)N3CCN(C(=O)c4ccccn4)C[C@H]3C)c[nH]c12", "cell line": "HeLa + HELA CD4+/CCR5", "read by": "luciferase", "value": "<10 µM"}
{"SMILES": "CC(C)C1=C2[C@H]3CC[C@@H]4[C@@]5(C)CC[C@H](OC(=O)[C@H]6C[C@@H](C(=O)O)C6(C)C)C(C)(C)[C@@H]5CC[C@@]4(C)[C@]3(C)CC[C@@]2(CCNCc2ccncc2)CC1=O", "strain or isolate": "92HT599", "cell line": "MT-2", "read by": "p24 / ELISA", "value": "<1 µM"}
{"SMILES": "O=C(C(=O)N1CCN(C(=O)c2ccncc2)CC1)c1c[nH]c2cccc(F)c12", "cell line": "HeLa + HELA CD4+/CCR5", "read by": "luciferase", "value": "<10 µM"}
{"SMILES": "CC(C)C1=C2[C@H]3CC[C@@H]4[C@@]5(C)CC[C@H](OC(=O)[C@H]6C[C@@H](C(=O)O)C6(C)C)C(C)(C)[C@@H]5CC[C@@]4(C)[C@]3(C)CC[C@@]2(CCNC(=O)c2ccc(Cl)cc2OCCN2CCS(=O)(=O)CC2)CC1=O", "strain or isolate": "92HT599", "cell line": "MT-2", "read by": "p24 / ELISA", "value": "<1 µM"}
{"SMILES": "CCC(=O)c1ccc(F)c([C@@H]2C[C@@H]2NC(=O)Nc2ccc(C#N)cn2)c1O", "strain or isolate": "LAI", "changes": "NNRTI-resistant (RT G190A)", "cell line": "TZM-bl", "read by": "β-galactosidase / luminescence", "value": "0.0004 µM"}
{"SMILES": "Cc1cc(OCCCN2CCOCC2)ccc1NC(=O)COc1ccc(Cl)cc1C(=O)c1cccs1", "strain or isolate": "WTRVA", "cell line": "HeLa + HELA CD4+", "read by": "β-galactosidase", "value": "0.011–0.1 µM"}
{"SMILES": "O=C(C(=O)N1CCN(C(=O)c2ccccn2)CC1)c1c[nH]c2c(F)ccc(F)c12", "cell line": "HeLa + HELA CD4+/CCR5", "read by": "luciferase", "value": "<10 µM"}
{"SMILES": "CC(C)C1=C2[C@H]3CC[C@@H]4[C@@]5(C)CC[C@H](OC(=O)[C@H]6C[C@@H](C(=O)O)C6(C)C)C(C)(C)[C@@H]5CC[C@@]4(C)[C@]3(C)CC[C@@]2([C@@H](O)CNCC2(N)CCCCC2)CC1=O", "strain or isolate": "92HT599", "cell line": "MT-2", "read by": "p24 / ELISA", "value": "<1 µM"}
{"SMILES": "Cc1cc(S(N)(=O)=O)ccc1NC(=O)COc1ccc(Cl)cc1C(=O)c1cc(F)cc(C#N)c1", "strain or isolate": "HXB2", "changes": "RT-V106I", "cell line": "HeLa + HELA CD4+", "read by": "β-galactosidase", "value": "<0.01 µM"}
{"SMILES": "CC(C)C1=C2[C@H]3CC[C@@H]4[C@@]5(C)CC[C@H](OC(=O)[C@H]6C[C@@H](C(=O)O)C6(C)C)C(C)(C)[C@@H]5CC[C@@]4(C)[C@]3(C)CC[C@@]2(CCNC(=O)c2ccc(N3CCS(=O)(=O)CC3)cc2)CC1=O", "strain or isolate": "92HT599", "cell line": "MT-2", "read by": "p24 / ELISA", "value": "<1 µM"}
{"SMILES": "Cc1cc2cn[nH]c2cc1NC(=O)COc1ccc(Cl)cc1C(=O)c1cccc(C#N)c1", "strain or isolate": "HXB2", "changes": "RT-V108I", "cell line": "HeLa + HELA CD4+", "read by": "β-galactosidase", "value": "0.101–1 µM"}
{"SMILES": "CCCc1cc(=O)oc2c3c(c4c(c12)OC(C)(C)CC4)O[C@@H](C)[C@H](C)[C@@H]3O", "strain or isolate": "IIIB", "cell line": "AA5", "read by": "cytopathic effect / XTT", "value": "0.6 µM"}
{"SMILES": "[2H]C([2H])(NC[C@H](O)[C@@]12CC[C@]3(C)[C@H](CC[C@@H]4[C@@]5(C)CC[C@H](OC(=O)[C@H]6C[C@@H](C(=O)O)C6(C)C)C(C)(C)[C@@H]5CC[C@]43C)C1=C(C(C)C)C(=O)C2)c1ccccc1", "strain or isolate": "92HT599", "cell line": "MT-2", "read by": "p24 / ELISA", "value": "<1 µM"}

3 of the rows above, restated:

SMILES	strain or isolate	changes	cell line	read by	value
CC(C)C1=C2[C@H]3CC[C@@H]4[C@@]5(C)CC[C@H](OC(=O)[C@H]6C[C@@H](C(=O)O)C6(C)C)C(C)(C)[C@@H]5CC[C@@]4(C)[C@]3(C)CC[C@@]2(CCNCCN2CCCCC2)CC1=O	92HT599	-	MT-2	p24 / ELISA	<1 µM
Cc1cc(S(N)(=O)=O)ccc1NC(=O)COc1ccc(Cl)cc1C(=O)c1cc(F)cc(C#N)c1	HXB2	RT-V106I	HeLa + HELA CD4+	β-galactosidase	<0.01 µM
O=C(C(=O)N1CCN(C(=O)c2cccc(S)c2)CC1)c1c[nH]c2cccc(F)c12	-	-	HeLa + HELA CD4+/CCR5	luciferase	<10 µM